Among the data in publication PMC3364950, “Structure and Functional Analysis of the RNA- and Viral Phosphoprotein-Binding Domain of Respiratory Syncytial Virus M2-1 Protein” are Kd values, retold here.

The exact form of at least one protein or probe is not confirmed. Tags and fusion partners may be left off the protein sequences shown.

As usually defined, the Kd is the free concentration of one partner at which half of the binding sites on the other are occupied at equilibrium, for simple one-to-one binding.

The target in the data set is T1, M2-1(58-177) core domain (UniProt P04545).
T1 sequence (looked up, limits assumed): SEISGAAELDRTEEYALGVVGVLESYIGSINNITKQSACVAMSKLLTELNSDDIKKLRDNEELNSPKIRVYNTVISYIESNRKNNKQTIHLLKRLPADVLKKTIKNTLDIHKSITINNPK
Nature of the data set: NMR titration. As to conditions: NMR: 50-60 µM protein, 293 K, 14.1 T, 1:1 model; recombinant protein.

Take AGUUAAUUAAAA [GE_SH-pos]: the Kd turned out to be 13 µM. The value for AGUUAUAUAAAA [GE_F-pos] was 11 µM.
